The source of these data is US20230365659A1 (EPSILON MOLECULAR ENGINEERING, published 2023).

To fix the notation:
B1: Bacillus subtilis-derived VHH-COVE2 (VHH)
VHH: AEVQLVESGGGLVQAGDSLRLSCAATRRTSSTYAMGWFRQAPGKGLEWVAAISWDGGRTYYAESVKGRFTISRDNAKNTVYLQMNSLKPEDTAVYYCYSFGGSDFLMDYWGQGTQVTVSSGGGSHHHHHH
B2: Bacillus subtilis-derived VHH-COVE1 (VHH)
VHH: AEVQLVESGGGLVQPGGSLRLSCAASGFAFSSYPMYWVRQAPGKGLEWISFIDGEGTSTSYADSVKGRFTISRDNAKNTVYLQMNSLKPEDTAVYYCNALLRRYNYGFTFDNYWGQGTQVTVSSGGGSHHHHHH
B3: Bacillus subtilis-derived VHH-COVE3 (VHH)
VHH: AEVQLVESGGGFVQAGGSLRLSCRVSAPTFMTYTMAWFRQAPGNEREFVAALSKNFVTTSYADSVKGRFTISRDNAKNTVYLQMNSLKPEDTAVYYCNVAWSDYEYLEVWGQGTLVTVSSGGGSHHHHHH

The first assay concerns the target T1, SARS-CoV-2 (2019-nCoV) spike S1-Fc recombinant protein (Sino Biological, Inc.) (SARS-CoV-2, UniProt P0DTC2 16-685).
T1 construct: also called spike S1 protein; S1 protein
The assay is described as follows: BLI competition on S1-Fc; competitor COVE4.
As for B1, the “binding signal with the second antibody, % of the signal with S1 alone” value (shortened to “binding signal … % of the signal with S1 alone”) was found to be 68.4%.
On to B2, for which the “binding signal … % of the signal with S1 alone” value turned out to be 10.2%.
As for B3, the “binding signal … % of the signal with S1 alone” value came to 80.3%.

The next assay concerns the target T1, SARS-CoV-2 (2019-nCoV) spike S1-Fc …. The assay can be described thus: BLI competition on S1-Fc; competitor COVE7.
As to B1, the “binding signal … % of the signal with S1 alone” value worked out at 5.54%.
As to B2, the “binding signal … % of the signal with S1 alone” value was 69%.
For the molecule B3, the “binding signal … % of the signal with S1 alone” value was 21.9%.

For another assay the target is unchanged. The assay can be described thus: BLI competition on S1-Fc; competitor COVE9.
Turning to B1, the “binding signal … % of the signal with S1 alone” value stood at 2.13%.
Same read-out and setting: with B2 the figure was 107%.
In the case of B3, the “binding signal … % of the signal with S1 alone” value is 5.87%.

For another assay the target is unchanged. The assay can be described thus: BLI competition on S1-Fc; competitor COVE3.
Regarding B1, the “binding signal … % of the signal with S1 alone” value came out at 17%.
With B2, the “binding signal … % of the signal with S1 alone” value was found to be 96.3%.
As for B3, the “binding signal … % of the signal with S1 alone” value was 13.2%.

Another assay has the same target. The assay is described as follows: BLI competition on S1-Fc; competitor COVE2.
Turning to B1, the “binding signal … % of the signal with S1 alone” value came to 18.6%.
Turning to B2, the “binding signal … % of the signal with S1 alone” value was 73.3%.
Regarding B3, the “binding signal … % of the signal with S1 alone” value is 19.4%.

The next assay shares this target. The assay is described as follows: BLI competition on S1-Fc; competitor COVE6.
Consider B1, for which the “binding signal … % of the signal with S1 alone” value is 3.38%.
On to B2, for which the “binding signal … % of the signal with S1 alone” value was determined as 99.2%.
Regarding B3, the “binding signal … % of the signal with S1 alone” value came out at 15.3%.

The target is the same in a further assay. The assay can be described thus: BLI competition on S1-Fc; competitor COVE5.
Take B1: the “binding signal … % of the signal with S1 alone” value came to 33.9%.
Still for that read-out and setting: with B2 the figure was 61.2%; with B3, 49.6%.

A further assay shares this target. The assay can be described thus: BLI competition on S1-Fc; competitor COVE8.
As to B1, the “binding signal … % of the signal with S1 alone” value is 3.61%.
Still for that read-out and setting: with B2 the figure was 107%; with B3, 20.1%.

For the next assay the target is unchanged. The assay is described as follows: BLI competition on S1-Fc; competitor COVE1.
As for B1, the “binding signal … % of the signal with S1 alone” value turned out to be 62.7%.
As to B2, the “binding signal … % of the signal with S1 alone” value turned out to be 22%.
In the case of B3, the “binding signal … % of the signal with S1 alone” value came out at 109%.
